The values that follow are results of earlier work, collected in patent US10794912B2 (priority 2017, dated 2020).

SMILES strings stand for the structures.

For the series the following is noted: 110° C. for 1 h.

As for `C[C@H]1CCCC(=O)CCC/C=C/c2cc(O)cc(O)c2C(=O)O1`, the heat resistance entry was “can only be completely destroyed after being treated at 110 °C for 1 h”.
